These results are taken from patent US7947741B2, “Use and administration of bacterial efflux pump inhibitors” (Mpex Pharmaceuticals, Inc., priority 2004, dated 2011).

≈ marks a conversion by molar mass, not a printed value.

What all share (format): cell-based, Pseudomonas aeruginosa
Experiment [1] has as its system P. aeruginosa PAM1483 (MexAB-OprM, MexCD-OprJ; gyrA (Asp87Tyr)). Nature of the experiment: microbe, parasite or virus in culture.
Experiment [2] relates to P. aeruginosa PAM1481 (MexAB-OprM; gyrA (Asp87Tyr)). The experiment can be described thus: microbe, parasite or virus in culture.
Experiment [3] has as its system P. aeruginosa PAM1573 (MexAB-OprM; gyrA (Thr83Ile)). The experiment can be described thus: microbe, parasite or virus in culture.
Experiment [4] relates to P. aeruginosa PAM1609 (MexAB-OprM; gyrA (Thr83Ile), parC (Ser87Leu), gyrA (Asp87Tyr)).
For experiment [5], the system named is P. aeruginosa PAM1582 (MexAB-OprM; gyrA (Thr83Ile), parC (Ser87Leu)).
Where [6] appears, read: Pseudomonas aeruginosa, read-out: Ciprofloxacin MIC w/o pentamidine.

Take `O=C(O)c1cn(C2CC2)c2cc(N3CCNCC3)c(F)cc2c1=O` [Ciprofloxacin, ciprofloxacin]: the MIC in experiment [1] (setting [6]) was 8 µg/mL (≈ 24.1 µM); in experiment [2] (setting [6]), 4 µg/mL (≈ 12.1 µM); in experiment [3] (setting [6]), 8 µg/mL (≈ 24.1 µM).
Turning to `N=C(N)c1ccc(OCCCCCOc2ccc(C(=N)N)cc2)cc1` [Pentamidine, pentamidine], the “Ciprofloxacin MIC w/pentamidine at 20 μg/ml” value stood at 2 µg/mL in experiment [1] (PAM1483); 0.5 µg/mL in experiment [2] (PAM1481); 16 µg/mL in experiment [4]; 8 µg/mL in experiment [5]; 1 µg/mL in experiment [3] (PAM1573). Also, the “Levofloxacin MIC w/pentamidine at 20 μg/ml” value in experiment [1] (PAM1483) turned out to be 1 µg/mL; in experiment [2] (PAM1481), 1 µg/mL; in experiment [4], 16 µg/mL; in experiment [5], 4 µg/mL; in experiment [3] (PAM1573) it was 1 µg/mL.
